Measured values from several laboratories, pooled; numbers as filed in NIAID ChemDB.

Common to all: growth or infection tests; species: Mycobacterium tuberculosis

Blank or dashed fields: not listed here. ECn is the concentration giving n% inhibition of infection, replication or growth. a–b is a range or a potency band. Lines come from different laboratories, so protocols vary. MIC50, MIC90 and the like: level of inhibition, or share of isolates inhibited. Percent inhibition refers to the dose given; in toxicity tests it is the harm to the cells. MIC bound comes from a single tested concentration.

SMILES,strain or isolate,dose,conditions,measure,changes,read by,cell line,result
COc1cccc(Nc2nc(NNc3nc(-c4ccccc4)c(C#N)c(=O)n3C)nc(Nc3cccc(OC)c3)n2)c1,H37Rv,,,EC50,,,VERO,<12.5 µg/mL
O=C(/C=C/c1ccccc1)n1c(-c2ccc(O)cc2)nc2ccccc21,H37Rv,,,MIC100,,resazurin / visual reading,,12.5 µg/mL
CCOC(=O)c1nc(C2CCCC2)[nH]c1C1CCCC1,H37Rv,,,MIC,,,,>6.25 µg/mL
CCCNCC(=O)O[C@]1(CC)C(=O)OCc2c1cc1n(c2=O)Cc2cc3ccccc3nc2-1,H37Rv,,,MIC bound,,BACTEC,,>12.5 µg/mL
O=C1Nc2ccccc2C12C=C(c1ccccc1)Nc1ccc(F)cc1S2,,,,EC50,,,,<12.5 µg/mL
CCOC(=O)c1nc(C23CC4CC(CC(C4)C2)C3)[nH]c1C1C2CC3CC(C2)CC1C3,H37Rv,6.25 µg/mL,,inhibition,,,,0%
CCCN1CN(NC(=O)c2ccncc2)CSC1=S,,,,MIC,,,,25 µg/mL
[O-][n+]1c2ccccc2[n+]([O-])c2cc(O)ccc21,H37Rv,,,MIC bound,,BACTEC,,>12.5 µg/mL
NNC(=O)Cc1cc(C2CCCC2)nc2ccccc12,H37Ra,,,MIC,,BACTEC,,>6.25 µg/mL
Cn1ncc2[nH]c(=O)n(OS(=O)(=O)c3ccccc3)c(=O)c21,H37Rv,,,MIC bound,,resazurin,,>6.25 µg/mL
O=C(NN1CSC(=S)N(Cc2ccccc2)C1)c1ccncc1,,,,MIC,,,,25 µg/mL
CCOC(=O)c1[nH]c2ccccc2c1CN(C)C,H37Rv,,,MIC bound,,BACTEC,,≤6.25 µg/mL
O=C(NCC(=O)N1CCN(c2ccc(N3C[C@H](Cn4ccnn4)OC3=O)cc2F)CC1)c1cc([N+](=O)[O-])cc([N+](=O)[O-])c1,H37Rv,,,MIC,,visual reading,,≤0.11 µM
O=C(Nc1cnc2ccccc2c1)c1cc(C2C3CC4CC(C3)CC2C4)c2ccccc2n1,H37Ra,,,MIC,,BACTEC,,>6.25 µg/mL
O=C(OCC(S)CS)c1ccc(Cl)cc1,H37Rv,,,MIC,,,,12.5 µg/mL
CCN=c1cc2n(-c3ccc(C(F)(F)F)cc3)c3ccccc3nc-2cc1Nc1ccc(C(F)(F)F)cc1,2227,,multidrug-resistant,MIC,,,,0.12 µg/mL
NNC(=O)c1ccncc1,H37Rv,,,MIC,,,,0.05 µg/mL
CCOC(=O)c1nc(C(C)(C)C)[nH]c1C(C)(C)C,H37Rv,6.25 µg/mL,,inhibition,,,,0%
O=C(Nn1cncn1)c1cc(F)ccc1O,My 331/88,,,MIC,,,,1000 µM
CCOC(=O)c1cnc(C(C)(C)C)[nH]1,H37Rv,,,MIC,,,,>6.25 µg/mL
COc1ccc(C(=O)Nc2ncn[nH]2)c(O)c1,My 331/88,,,MIC,,,,500 µM
CCCCCCCNC(=O)c1cc(C2C3CC4CC(C3)CC2C4)c2ccccc2n1,H37Ra,6.25 µg/mL,,inhibition,,BACTEC,,1%
Cc1ccc2c(c1)Nc1ccccc1C(=O)N2,H37Rv,,,MIC bound,,BACTEC,,>12.5 µg/mL
CCCCCC(O)CC(=O)CCc1ccc(O)c(OC)c1,H37Rv,,,MIC,,,,>100 µg/mL
O=C(/C=C/c1ccccc1)n1c(-c2ccccc2[N+](=O)[O-])nc2ccccc21,H37Rv,,,MIC100,,resazurin / visual reading,,12.5 µg/mL
Cn1c(NNc2nc(Nc3cc(Cl)cc(Cl)c3)nc(Nc3cc(Cl)cc(Cl)c3)n2)nc(-c2ccccc2)c(C#N)c1=O,H37Rv,,,EC50,,,VERO,<12.5 µg/mL
CCOc1cccc(NC(=O)OCCN(C)C)c1,My 331/88,,,MIC,,,,>250 µM
O=[N+]([O-])c1cn2c(n1)OC[C@@H](OCc1ccc(OCc3ccccc3)cc1)C2,H37Rv-14A1-3547 (PA-824-resistant),,,MIC,,,,0.2 µM
CC(C)c1nc(C(=O)O)c(C(C)C)[nH]1,H37Rv,,,MIC,,,,>6.25 µg/mL
CCCC(=O)OCC(S)CS,H37Rv,,,MIC,,,,25 µg/mL
COc1ccc(Nc2nc(NNc3nc(-c4ccccc4)c(C#N)c(=O)n3C)nc(Nc3ccc(OC)cc3)n2)cc1,H37Rv,12.5 µg/mL,,inhibition,,,,71%
O=C(/C=C/c1ccccc1)n1c(-c2ccccc2Cl)nc2ccccc21,H37Rv,,,MIC100,,resazurin / visual reading,,50 µg/mL
CCCCOc1ccccc1NC(=O)OCC[NH+]1CCCC1,My 331/88,,,MIC,,,,500 µM
CC[C@@]1(O)CC2CN(CCc3c([nH]c4ccccc34)[C@](C(=O)OC)(c3cc4c(cc3OC)N(C=O)[C@H]3C45CCN4CC=C[C@](CC)(C[C@@]3(O)C(=O)OC)[C@@H]45)C2)C1.O=S(=O)(O)O,H37Rv,12.5 µg/mL,,inhibition,,BACTEC,,18%
O=C(SCC1CS1)C(Cl)(Cl)Cl,H37Rv,,,MIC,,,,25 µg/mL
CC/C(=C(\c1ccccc1)c1ccc(OCCN(C)C)cc1)c1ccccc1,Strep-r,,,MIC,,resazurin,,6.25–12.5 µg/mL
O=C(Nc1cncs1)c1ccccc1O,My 331/88,,,MIC,,,,62.5 µM
O=C(SCC1CS1)c1ccc(Cl)cc1,H37Rv,,,MIC,,,,50 µg/mL
CCCCNC(=S)S,INH-r,,,MIC,,,,>12.5 µg/mL
CCCCCCCOc1ccccc1NC(=O)OCCN1CCCCCC1,My 331/88,,,MIC,,,,8 µM
CCO/C=C1N=C(/C=C/c2ccccc2Cl)OC\1=O,H37Rv,12.5 µg/mL,,inhibition,,BACTEC,,7%
CCCCCOc1ccc(NC(=O)OCCN2CCOCC2)cc1,My 331/88,,,MIC,,,,62.5 µM
CC(=O)Oc1c(C)c2c(O)c3c1C1=C(OCOC1=C(C)C3=O)/C(C)=C/[C@@](C)(O)[C@H](O)[C@@H](C)[C@@H](O)[C@H](C(=O)O)[C@H](O)[C@H](C)C(O)[C@H](C)/C=C\C=C(/C)C(=O)N2,CS-R,,,MIC,,,,0.4 µg/mL
NNC(=O)c1cc(C2CCCCC2)c2ccccc2n1,H37Ra,,,MIC,,BACTEC,,>6.25 µg/mL
COc1ccccc1Nc1nc(NNc2nc(-c3ccc(Cl)cc3)c(C#N)c(=O)n2C)nc(Nc2ccccc2OC)n1,H37Rv,,,MIC,,,,>12.5 µg/mL
Cc1cc(NC(=O)c2cc(Cl)ccc2O)no1,My 331/88,,,MIC,,,,125 µM
CC1COc2c(N3CCN(C)CC3)c(F)cc3c(=O)c(C(=O)O)cn1c23,H37RV (SM-R),,,MIC,,,,1.25 µg/mL
O=C(OCC(S)CS)c1cccc2ccccc12,H37Rv,,,MIC,,,,50 µg/mL
CCCCCC1(C)Cn2cc([N+](=O)[O-])nc2O1,H37Rv-T3-Fgd1 (PA-824-resistant),,,MIC,,,,0.2 µM
O=C(Nc1cnccn1)c1cc(Br)ccc1O,My 331/88,,,MIC,,,,125 µM
O=C(O)c1cnc(C2CCCCC2)[nH]1,H37Rv,6.25 µg/mL,,inhibition,,,,0%
O=C(Nc1ccc(Cl)cc1Cl)C(=O)Nn1c(=S)[nH]c2ccccc2c1=O,H37Rv,12.5 µg/mL,,inhibition,,BACTEC,,20%
O=C(Nn1cncn1)c1cc(Br)ccc1O,My 331/88,,,MIC,,,,1000 µM
C[C@]1(COc2ccc(N3CCC(Oc4ccc(OC(F)(F)F)cc4)CC3)cc2)Cn2cc([N+](=O)[O-])nc2O1,31 strains (INH-susceptible),,,MIC90,,,,0.012 µg/mL
O=C(COc1ccc(Cl)cc1)SCC1CS1,H37Rv,,,MIC,,,,>50 µg/mL
CCOc1ccccc1NC(=O)OCC[NH+]1CCCC1,My 331/88,,,MIC,,,,1000 µM
COc1ccc(C(=O)Nc2cnccn2)c(O)c1,My 331/88,,,MIC,,,,16 µM
CO[C@H]1/C=C/O[C@@]2(C)Oc3c(C)c(O)c4c(O)c(c(/C=N/N5CCN(C)CC5)c(O)c4c3C2=O)NC(=O)/C(C)=C\C=C\[C@H](C)[C@H](O)[C@@H](C)[C@@H](O)[C@@H](C)[C@H](OC(C)=O)[C@@H]1C,CSU H37Rv,,,MIC,,BACTEC,,0.049 µg/mL
Cc1ccc2ncn(C(=O)/C=C/c3ccccc3)c2c1,H37Rv,,,MIC100,,resazurin / visual reading,,50 µg/mL
O=C1c2ccncc2C(=O)c2c1[nH]c1ccccc21,H37Rv,,,MIC,,resazurin,,1.56 µg/mL
O=C(/C=C/c1ccccc1)n1c(-c2cccc([N+](=O)[O-])c2)nc2ccccc21,H37Rv,,,MIC100,,resazurin / visual reading,,50 µg/mL
COC(=O)/C=C/c1cnc[nH]1,H37Rv,6.25 µg/mL,,inhibition,,,,0%
NNC(=O)c1ccc2ccccc2n1,H37Ra,,,MIC,,BACTEC,,>6.25 µg/mL
Cc1ccc(S(=O)(=O)Nc2ccc(C(=O)OCC(S)CS)cc2)cc1,H37Rv,,,MIC,,,,>50 µg/mL
CCCCCCCOc1ccc(NC(=O)OCCN2CCCCCC2)cc1,My 331/88,,,MIC,,,,8 µM
O=C(/C=C/c1ccccc1)n1c(-c2ccccc2)nc2ccccc21,H37Rv,,,MIC100,,resazurin / visual reading,,6.25 µg/mL
NNC(=O)c1cc(C2CCCCC2)c2cccc(C3CCCCC3)c2n1,H37Ra,6.25 µg/mL,,inhibition,,BACTEC,,23%
O=C(NNC1=NCCN1Cc1ccccc1)c1cccc(Cl)c1,H37Rv,,,MIC bound,,BACTEC,,>12.5 µg/mL
Cc1ccc(Nc2nc(NNc3nc(-c4ccccc4)c(C#N)c(=O)n3C)nc(Nc3ccc(C)cc3C)n2)c(C)c1,H37Rv,12.5 µg/mL,,inhibition,,,VERO,95%
NC(=O)c1cc(C2C3CC4CC(C3)CC2C4)c2ccccc2n1,H37Ra,6.25 µg/mL,,inhibition,,BACTEC,,98%
NC(=O)C(=O)N/N=C1/C(=O)N(c2ccc(Cl)cc2Cl)C(=O)C1C(=O)Nc1ccc(Cl)cc1Cl,H37Rv,,,MIC,,BACTEC,,≥12.5 µg/mL
O=C(NCC(=O)N1CCN(c2ccc(N3C[C@H](Cn4ccnn4)OC3=O)cc2F)CC1)C1=CC=C([N+](=O)[O-])C1,SRI 1369,,,MIC,Isoniazid-resistant,broth dilution / visual reading,,0.057–0.12 µM
Cc1c2oc3c(C)ccc(C(=O)NC(C(N)=O)C(C)O)c3nc-2c(C(=O)NC(C(N)=O)C(C)O)c(N)c1=O,H37Rv,12.5 µg/mL,,inhibition,,BACTEC,,0%
CCCCCCCCOc1cccc(NC(=O)OCCN2CCCCC2)c1,My 331/88,,,MIC,,,,16 µM
CN(C)[C@@H]1C(=O)C(C(=O)NCNc2nc3n[nH]nc3c(=O)[nH]2)=C(O)[C@@]2(O)C(=O)C3=C(O)c4c(O)cccc4[C@@](C)(O)[C@H]3C[C@@H]12,H37Rv,12.5 µg/mL,,inhibition,,BACTEC,,1%
C/C=C1\C(=O)O[C@]23C=C[C@@H]4C(C(=O)OC)=CO[C@H](O[C@@H]12)[C@@H]43,H37Rv,,,MBC,,MTT,,4.1 µg/mL
O=C1OC2(O)c3ccccc3C(=O)N2N2CCCCC12,H37Rv,,,MIC bound,,resazurin,,>6.25 µg/mL
CO[C@H]1/C=C/O[C@@]2(C)Oc3c(C)c(O)c4c(O)c(c(/C=N/N5CCN(C6CCCC6)CC5)c(O)c4c3C2=O)NC(=O)/C(C)=C\C=C\[C@H](C)[C@H](O)[C@@H](C)[C@@H](O)[C@@H](C)[C@H](OC(C)=O)[C@@H]1C,H37Rv,,,MIC,,,,0.063 µg/mL
Cc1cc(NC(=O)NC(=O)c2ccccc2N(C)C)ccc1Oc1ncc(Br)cn1,H37Rv,12.5 µg/mL,,inhibition,,BACTEC,,96%
O=C(Nc1ccc([N+](=O)[O-])cc1)c1cc(C2C3CC4CC(C3)CC2C4)c2ccccc2n1,H37Ra,6.25 µg/mL,,inhibition,,BACTEC,,43%
CC(C)C(C(=O)O)N1C(=O)C2C3CCC(O3)C2C1=O,H37Rv,,,MIC bound,,BACTEC,,>12.5 µg/mL
Cn1c(NNc2nc(Nc3ccc(Cl)cc3Cl)nc(Nc3ccc(Cl)cc3Cl)n2)nc(-c2ccccc2)c(C#N)c1=O,H37Rv,,,MIC,,,,>12.5 µg/mL
CO[C@@]12[C@H](COC(N)=O)C3=C(C(=O)C(C)=C(N)C3=O)N1C[C@H]1[C@@H]2N1C(=O)C1N2C(=O)[C@@H](NC(=O)Cc3ccccc3)[C@H]2SC1(C)C,INH-r,,,MIC,,,,0.2 µg/mL
Cn1c(NNc2nc(Nc3ccc(F)c(Cl)c3)nc(Nc3ccc(F)c(Cl)c3)n2)nc(-c2ccc(Cl)cc2)c(C#N)c1=O,H37Rv,12.5 µg/mL,,inhibition,,,VERO,98%
CCCCN1C(=O)C(=O)N(c2ccccc2)C1=O,H37Rv,,,MIC bound,,BACTEC,,>12.5 µg/mL
CCc1cc(C(N)=S)ccn1,H37RV (DL8280-R),,,MIC,,,,20 µg/mL

A second listing of 8 rows from above:

SMILES,strain or isolate,dose,conditions,measure,changes,read by,cell line,result
O=C(/C=C/c1ccccc1)n1c(-c2ccccc2[N+](=O)[O-])nc2ccccc21,H37Rv,,,MIC100,,resazurin / visual reading,,12.5 µg/mL
Cc1ccc2ncn(C(=O)/C=C/c3ccccc3)c2c1,H37Rv,,,MIC100,,resazurin / visual reading,,50 µg/mL
CCOc1ccccc1NC(=O)OCC[NH+]1CCCC1,My 331/88,,,MIC,,,,1000 µM
CCOc1cccc(NC(=O)OCCN(C)C)c1,My 331/88,,,MIC,,,,>250 µM
NNC(=O)c1ccncc1,H37Rv,,,MIC,,,,0.05 µg/mL
Cc1ccc(Nc2nc(NNc3nc(-c4ccccc4)c(C#N)c(=O)n3C)nc(Nc3ccc(C)cc3C)n2)c(C)c1,H37Rv,12.5 µg/mL,,inhibition,,,VERO,95%
O=C(NN1CSC(=S)N(Cc2ccccc2)C1)c1ccncc1,,,,MIC,,,,25 µg/mL
CC(=O)Oc1c(C)c2c(O)c3c1C1=C(OCOC1=C(C)C3=O)/C(C)=C/[C@@](C)(O)[C@H](O)[C@@H](C)[C@@H](O)[C@H](C(=O)O)[C@H](O)[C@H](C)C(O)[C@H](C)/C=C\C=C(/C)C(=O)N2,CS-R,,,MIC,,,,0.4 µg/mL